The source of these data is article PMC8035206.

The data set concerns the target N-mEGFP full length (nucleocapsid) (SARS-CoV-2) (UniProt P0DTC9). Kind of data set: EMSA. The conditions noted are these: 1 uM protein, 200 nM RNA; recombinant protein; residues 1-419. On the technique in general: A gel shift assay detects complexes by their altered migration in electrophoresis.

Construct, isoform or probe ends are uncertain for at least one entry. At least one verdict was read from the data and is not stated in words by the source.

Consider “AUUAAAGGUUUAUACCUUCCCAGGUAACAAACCAACCAACUUUCGAUCUCUUGUA [55-nt vRNA (5' UTR segment)]”, for which the binding result is given as “binds”.
